Measurements taken from PMC7157764, “Avoiding Drug Resistance by Substrate Envelope-Guided Design: Toward Potent and Robust HCV NS3/4A Protease Inhibitors” (mBio, 2020).
Read-outs that look alike come from different tables or passages of the source.

Chains of the proteins cited; added tags and fusions are not shown. Residues count along the entry.
UniProt P27958, 1027-1208 C1185S/D1194A limits assumed: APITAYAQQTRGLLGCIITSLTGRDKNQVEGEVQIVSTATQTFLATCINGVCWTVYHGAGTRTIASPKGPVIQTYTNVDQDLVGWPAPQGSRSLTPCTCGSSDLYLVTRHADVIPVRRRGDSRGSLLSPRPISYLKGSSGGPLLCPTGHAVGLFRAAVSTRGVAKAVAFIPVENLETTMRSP

Tests used:
[1] = target: HCV NS3/4A protease D168A variant (Hepatitis C virus genotype 1a, UniProt P27958, C1185S/D1194A); test: Enzyme inhibition assay, D168A NS3/4A protease variant; conditions: for Ki: read-out: Ki D168A, 2 nM protease preincubated 1 h at room temperature with inhibitor, pH 7.5, 200 nM fluorogenic substrate, Morrison equation global fit, error from global fit of at least three replicates
Description: (§1) The HCV GT1a NS3/4A protease gene described in the Bristol Myers Squibb patent was synthesized by GenScript and cloned into a PET28a expression vector ([52]). Cys159 was mutated to a serine residue to prevent disulfide bond formation and facilitate crystallization. The D168A gene was engineered using a site-directed mutagenesis protocol from Stratagene. Protein expression and purification were carried out as previously described ([28]). Briefly, transformed Escherichia coli BL21(DE3) cells were grown in Tris-borate (TB) medium containing 30 μg/ml of kanamycin antibiotic at 37°C. After cultures reached an optical density at 600 nm (OD600) of 0.7, they were induced with 1 mM isopropyl-β-D-thiogalactopyranoside (IPTG) and harvested after 3 h of expression. Cells were pelleted by centrifugation, resuspended in resuspension buffer (RB) (50 mM phosphate buffer, 500 mM NaCl, 10% glycerol, 2 mM β-mercaptoethanol [β-ME], pH 7.5), and frozen at −80°C for storage.
(§2) The inner-filter effect (IFE) for the NS3/4A protease substrate was determined using a previously described method ([53]). […] . The fluorescence of free 5-FAM was determined by subtracting the first fluorescence endpoint reading from the reading at the second round. IFE corrections were then calculated by dividing the free 5-FAM florescence at each substrate concentration by the free 5-FAM florescence at zero substrate.
(§3) Km constants for GT1 and D168A protease were previously determined ([29]). Briefly, a 20 μM concentration of substrate [Ac-DE-Dap(QXL520)-EE-Abu-γ-[COO]AS-C(5-FAMsp)-NH2] (AnaSpec) was serially diluted into assay buffer (50 mM Tris, 5% glycerol, 10 mM dithiothreitol [DTT], 0.6 mM LDAO [N,N-dimethyldodecylamine N-oxide], and 4% dimethyl sulfoxide), and proteolysis was initiated by rapid injection of 10 μl of protease (final concentration, 20 nM) in a reaction volume of 60 μl. The fluorescence output from the substrate cleavage product was measured kinetically using an EnVision plate reader (Perkin-Elmer) with excitation wavelength at 485 nm and emission at 530 nm. Inner-filter effect corrections were applied to the initial velocities (Vo) at each substrate concentration. Graphs of Vo versus substrate concentration were globally fit to the Michaelis-Menten equation to obtain the Km value.
(§4) For each assay, 2 nM NS3/4A protease (GT1a and D168A) was preincubated at room temperature for 1 h with an increasing concentration of inhibitors in assay buffer (50 mM Tris, 5% glycerol, 10 mM DTT, 0.6 mM LDAO, and 4% dimethyl sulfoxide, pH 7.5). Inhibition assays were performed in nonbinding-surface 96-well black half-area plates (Corning) in a reaction volume of 60 μl. The proteolytic reaction was initiated by the injection of 5 μl of HCV NS3/4A protease substrate (AnaSpec), to a final concentration of 200 nM, and kinetically monitored using a Perkin Elmer EnVision plate reader (excitation at 485 nm; emission at 530 nm). Three independent data sets were collected for each inhibitor with each protease construct.

[2] = tested on: HCV NS3/4A protease D168A variant; test: as above; conditions: Ki D168A / Ki GT1a WT, in parentheses in Table S1
Description: as §1, §2, §3, §4

SMILES	Fold change of Ki, D168A relative to WT [2] [fold]	other results
COc1ccc2nc(C)c(O[C@@H]3C[C@H]4C(=O)N[C@]5(C(=O)NS(=O)(=O)C6(C)CC6)C[C@H]5/C=C\CCCCC[C@H](NC(=O)OC5CCCC5)C(=O)N4C3)nc2c1	32	Ki [1]: 36 nM
COc1ccc2nc(C)c(O[C@@H]3C[C@H]4C(=O)N[C@]5(C(=O)NS(=O)(=O)C6(C)CC6)C[C@H]5/C=C\CCCCC[C@H](NC(=O)OC(C)(C)C)C(=O)N4C3)nc2c1	14	Ki ([1]; listed as parent compound): 50 nM
CC[C@H](C)[C@H](NC(C)=O)C(=O)N[C@H]1CCCCC/C=C\[C@@H]2C[C@@]2(C(=O)NS(=O)(=O)C2(C)CC2)NC(=O)[C@@H]2C[C@@H](Oc3nc4cc(OC)ccc4nc3C)CN2C1=O	11	–
COC(=O)N[C@H](C(=O)N[C@H]1CCCCC/C=C\[C@@H]2C[C@@]2(C(=O)NS(=O)(=O)C2(C)CC2)NC(=O)[C@@H]2C[C@@H](Oc3nc4cc(OC)ccc4nc3C)CN2C1=O)C1CCCC1	9	–
COC(=O)N[C@H](C(=O)N[C@H]1CCCCC/C=C\[C@@H]2C[C@@]2(C(=O)NS(=O)(=O)C2(C)CC2)NC(=O)[C@@H]2C[C@@H](Oc3nc4cc(OC)ccc4nc3C)CN2C1=O)C(C)(C)C	8	–
COc1ccc2nc(C)c(O[C@@H]3C[C@H]4C(=O)N[C@]5(C(=O)NS(=O)(=O)C6(C)CC6)C[C@H]5/C=C\CCCCC[C@H](NC(=O)OC5(C)CCCC5)C(=O)N4C3)nc2c1	9	Fold increase in potency against D168A from P4-3 to P4-4 ([1]; relative to P4-3, 1-methyl substituent added to cyclopentyl P4 cap): 2 fold
COc1ccc2nc(C)c(O[C@@H]3C[C@H]4C(=O)N[C@]5(C(=O)NS(=O)(=O)C6(C)CC6)C[C@H]5/C=C\CCCCC[C@H](NC(=O)[C@@H](NC(C)=O)C5CCCC5)C(=O)N4C3)nc2c1	39	–
COc1ccc2nc(C)c(O[C@@H]3C[C@H]4C(=O)N[C@]5(C(=O)NS(=O)(=O)C6(C)CC6)C[C@H]5/C=C\CCCCC[C@H](NC(=O)[C@@H](NC(C)=O)C(C)C)C(=O)N4C3)nc2c1	13	–
COc1ccc2nc(C)c(O[C@@H]3C[C@H]4C(=O)N[C@]5(C(=O)NS(=O)(=O)C6(C)CC6)C[C@H]5/C=C\CCCCC[C@H](NC(=O)[C@@H](NC(C)=O)C(C)(C)C)C(=O)N4C3)nc2c1	9	–
